PubChem BioAssay AID1259414 – Drosophila RNAi Screening Center – 2018

Screen: 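Fly genes that alter Wolbachia amount inside host cells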 (primary screen)
Cells: Drosophila JW18 cells infected with Wolbachia
Knock-down reagent: long dsRNA against Drosophila genes, 0.25 µg dsRNA per well of a 384-well plate
Time to read-out: 5 days
Challenge: cells persistently infected with Wolbachia before knock-down; no added drug
Read-out: 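Automated imaging of bacterial rRNA staining divided by host cell count, reported as plate-normalised robust z-score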
Direction: Wolbachia per cell robust z: higher = more Wolbachia per host cell than the plate typical
Rule for the call: 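Active if absolute robust z reaches 1.5 in two or more of three replicates, leaving out multi- or no-target dsRNAs, genes unexpressed in JW18 and A1 wells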
The deposit covers about 24,000 reagents; shown is an unselected part of those with a known target gene and a result. Over the whole deposit, about 1,210 (5%) are marked active. 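Inactive calls also include excluded dsRNAs with several or no targets, genes unexpressed in JW18, and well A1, regardless of score.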 A plus sign joins genes that one reagent is predicted to hit.

Gene | dsRNA | Wolbachia per cell robust z, rep 1 | Wolbachia per cell robust z, rep 2 | Wolbachia per cell robust z, rep 3 | activity call
beag (GeneID 41091) | DRSC15296 | 0.428 | 0.585 | 0.61 | inactive
CG15864 (GeneID 50001) | DRSC15122 | -4.81 | 0.507 | 0.513 | inactive
CG15864 (GeneID 50001) | DRSC25659 | 0.256 | 1.84 | 0.755 | inactive
lncRNA:CR13130 + bib | DRSC24888 | 0.881 | 0.864 | 0.997 | inactive
CR33318 (GeneID 3771976) | DRSC22949 | -0.446 | 0.236 | -0.483 | inactive
blp (GeneID 41937) | DRSC15757 | -0.3 | 0.339 | 0.426 | inactive
blp (GeneID 41937) | DRSC28887 | -0.773 | 0.692 | 0.933 | inactive
Tsp3A (GeneID 31244) | DRSC18656 | -0.178 | 0.242 | -0.255 | inactive
Tsp3A (GeneID 31244) | DRSC25654 | -0.325 | 1.19 | 0.527 | inactive
sxe2 (GeneID 41954) | DRSC15692 | -0.364 | -0.0559 | 0.457 | inactive
CG32100 (GeneID 39400) | DRSC09725 | 0.307 | -0.427 | -4.72 | inactive
CG32100 (GeneID 39400) | DRSC10331 | 0.357 | -0.193 | -0.0203 | inactive
CG4364 (GeneID 34287) | DRSC02742 | -0.455 | 0.779 | 1.14 | inactive
CG4364 (GeneID 34287) | DRSC29531 | -0.417 | -1.65 | -0.327 | inactive
yellow-h (GeneID 43779) | DRSC17141 | 0.482 | -0.254 | -1.01 | inactive
Npc2d (GeneID 41232) | DRSC14551 | 0.671 | -0.148 | -2.11 | inactive
Npc2d (GeneID 41232) | DRSC28011 | -0.85 | 0.753 | -0.227 | inactive
Cap-D2 (GeneID 43491) | DRSC15401 | 1.52 | 0.888 | 1.2 | inactive
Cap-D2 (GeneID 43491) | DRSC24096 | 1.04 | 0.89 | 0.548 | inactive
ND-51 (GeneID 33852) | DRSC03145 | 0.38 | -0.0465 | 1.37 | inactive
Nmnat (GeneID 42987) | DRSC14644 | 0.657 | 0.507 | -0.608 | inactive
Nmnat (GeneID 42987) | DRSC26899 | -0.733 | -0.679 | -2.12 | inactive
CG5171 (GeneID 34016) | DRSC02823 | 0.708 | -0.225 | -0.926 | inactive
CG5171 (GeneID 34016) | DRSC28092 | -0.0312 | 0.414 | 0.104 | inactive
CG5171 (GeneID 34016) | DRSC41586 | -2.28 | 0.913 | -0.288 | inactive
CG4704 (GeneID 42706) | DRSC15628 | 0.568 | -0.739 | 0.855 | inactive
CG10510 (GeneID 40341) | DRSC11614 | -2.44 | -0.125 | -0.792 | inactive
Gtpx (GeneID 38413) | DRSC08221 | -0.98 | -1.66 | 0.0756 | inactive
Gtpx (GeneID 38413) | DRSC22117 | -1.62 | -1.03 | -0.542 | inactive
CG31816 (GeneID 318960) | DRSC01547 | 1.14 | -0.116 | -0.185 | inactive
Spx (GeneID 31558) | DRSC18720 | -3.86 | 0.299 | -0.0716 | inactive
Spx (GeneID 31558) | DRSC23542 | 2.1 | 6.97 | 5.77 | active
CG5245 (GeneID 41530) | DRSC15750 | 1.07 | -0.00822 | -0.996 | inactive
CG5245 (GeneID 41530) | DRSC29337 | -1.36 | 0.225 | -6.77 | inactive
Lsm11 (GeneID 36013) | DRSC06238 | 0.0572 | -0.162 | 0.354 | inactive
CG13096 (GeneID 34183) | DRSC02198 | -0.0675 | 0.761 | 0.853 | inactive
ND-B16.6 (GeneID 31578) | DRSC18306 | -0.276 | 1.01 | -0.338 | inactive
ND-B16.6 (GeneID 31578) | DRSC22600 | 0.58 | 0.747 | -0.828 | inactive
ND-B16.6 (GeneID 31578) | DRSC26200 | -0.0761 | -0.544 | -0.82 | inactive
CG42365 (GeneID 37469) | DRSC04266 | 1.17 | 1.1 | 1.58 | inactive
RYa-R (GeneID 43253) | DRSC16757 | 0.44 | 0.97 | -0.503 | inactive
CDK2AP1 (GeneID 32050) | DRSC19800 | -1.88 | -2.55 | -1.44 | active
CDK2AP1 (GeneID 32050) | DRSC25637 | -0.653 | -0.435 | -0.654 | inactive
CG9555 (GeneID 34223) | DRSC03264 | 0.00422 | 1.19 | 1.66 | inactive
CG9555 (GeneID 34223) | DRSC25330 | 0.99 | 1.35 | -0.487 | inactive
Eig71Ec (GeneID 39703) | DRSC11150 | -0.0315 | 0.341 | -1.01 | inactive
Osi9 (GeneID 40763) | DRSC12278 | 0.292 | -0.0742 | -0.541 | inactive
Osi9 (GeneID 40763) | DRSC28928 | -0.0412 | -0.0599 | -0.477 | inactive
botv (GeneID 37198) | DRSC05949 | 0.771 | -0.993 | 0.049 | inactive
botv (GeneID 37198) | DRSC28034 | 1.43 | -1.04 | -0.778 | inactive
CG7744 (GeneID 37239) | DRSC07036 | -0.797 | 0.423 | 0.568 | inactive
S-Lap1 (GeneID 38986) | DRSC10627 | -0.179 | -1.01 | -0.325 | inactive
CG7202 (GeneID 40376) | DRSC11818 | -0.38 | -0.904 | -1.78 | inactive
CG7202 (GeneID 40376) | DRSC25884 | -0.604 | -0.43 | -0.0114 | inactive
CG15646 (GeneID 32501) | DRSC19682 | -0.00669 | 0.554 | 0.107 | inactive
CG15646 (GeneID 32501) | DRSC41286 | 0.725 | -0.938 | 0.485 | inactive
CG10286 (GeneID 40786) | DRSC12520 | 0.855 | -0.596 | 0.393 | inactive
CG18480 (GeneID 34920) | DRSC01957 | -1.12 | -1.67 | 0.532 | inactive
CG18480 (GeneID 34920) | DRSC24949 | -1.99 | -1.51 | 0.563 | inactive
lmgA + lmgB | DRSC03566 | 0.656 | 0.174 | -0.46 | inactive
lmgA + lmgB | DRSC24454 | -0.712 | -0.838 | -1.53 | inactive
prom (GeneID 246493) | DRSC04684 | 0.375 | 0.781 | 0.315 | inactive
prom (GeneID 246493) | DRSC21463 | -0.293 | -0.14 | -0.266 | inactive
prom (GeneID 246493) | DRSC22088 | 0.0464 | 0.659 | -0.869 | inactive
prom (GeneID 246493) | DRSC24876 | 1.72 | 0.0796 | 0.386 | inactive
prom (GeneID 246493) | DRSC26828 | 0.326 | 0.445 | -0.135 | inactive
prom (GeneID 246493) | DRSC27557 | 0.377 | -2.6 | -0.0847 | inactive
Cp38 (GeneID 31788) | DRSC18453 | 0.659 | 0.0438 | 0.497 | inactive
Syx18 (GeneID 42933) | DRSC14628 | -6.93 | -0.63 | 0.471 | inactive
Dgkepsilon (GeneID 36408) | DRSC07399 | 0.669 | 0.000148 | 0.361 | inactive
Sptz (GeneID 41370) | DRSC15758 | 0.825 | -0.118 | 0.525 | inactive
Sptz (GeneID 41370) | DRSC27382 | -0.00782 | 0.864 | -0.163 | inactive
se (GeneID 38973) | DRSC10713 | -1.63 | -0.412 | -0.306 | inactive
Cyp6a17 (GeneID 45556) | DRSC07378 | -0.744 | -0.924 | 0.366 | inactive
Cc2d2a (GeneID 36982) | DRSC06750 | 0.603 | -1.33 | 0.34 | inactive
Cc2d2a (GeneID 36982) | DRSC06779 | -0.803 | -0.281 | -1.16 | inactive
Cc2d2a (GeneID 36982) | DRSC26325 | 0.0477 | 0.106 | -0.908 | inactive
CG16995 (GeneID 33413) | DRSC00480 | -2.67 | -5.58 | -5.3 | inactive
Lamtor4 (GeneID 38454) | DRSC08436 | -0.0102 | -3.2 | 0.256 | inactive
Tbcb (GeneID 37244) | DRSC06067 | 0.231 | 0.945 | 0.0829 | inactive
CG4338 (GeneID 41849) | DRSC15564 | -0.269 | 0.136 | 0.893 | inactive
Ugt307A1 (GeneID 33993) | DRSC02138 | -0.248 | -1.51 | -0.751 | inactive
VGAT (GeneID 36574) | DRSC07160 | 1.26 | 0.819 | 1.19 | inactive
CG1492 (GeneID 32164) | DRSC19605 | -1.4 | -0.374 | -0.713 | inactive
CG10909 (GeneID 41581) | DRSC14282 | 1.02 | 0.356 | -0.523 | inactive
lawc (GeneID 318164) | DRSC23208 | 1.33 | 1.84 | 0.669 | inactive
CG10337 (GeneID 35247) | DRSC02038 | -0.598 | 0.603 | 0.152 | inactive

Copied from the listing, 7 entries:
Gene | dsRNA | Wolbachia per cell robust z, rep 1 | Wolbachia per cell robust z, rep 2 | Wolbachia per cell robust z, rep 3 | activity call
yellow-h (GeneID 43779) | DRSC17141 | 0.482 | -0.254 | -1.01 | inactive
Npc2d (GeneID 41232) | DRSC14551 | 0.671 | -0.148 | -2.11 | inactive
Npc2d (GeneID 41232) | DRSC28011 | -0.85 | 0.753 | -0.227 | inactive
Cap-D2 (GeneID 43491) | DRSC15401 | 1.52 | 0.888 | 1.2 | inactive
Cap-D2 (GeneID 43491) | DRSC24096 | 1.04 | 0.89 | 0.548 | inactive
ND-51 (GeneID 33852) | DRSC03145 | 0.38 | -0.0465 | 1.37 | inactive
Nmnat (GeneID 42987) | DRSC14644 | 0.657 | 0.507 | -0.608 | inactive
